The test concerns chicken liver microsomes (CYP450). The settings on record: Michaelis-Menten, PH (CYP1A2), BP (CYP2B6), CLN (CYP2E1), TBD (CYP2C9), CAN (CYP2A6), MDZ (CYP3A4), n = 3. The procedure: A cocktail-approach for elucidating the metabolites profiling and CYP450 inhibition was conducted as in Lin et al. with minor changes. […] Probes substrates were dissolved in methanol as stock solution (1 mg/mL). All of them were diluted to the final concentrations (see Supplemental Materials) with incubation buffer and the percentage of organic solvent in the final incubation volume was below 1% (v/v). Briefly, the mixture was preincubated in a thermoshaker (Biosan, Geraardsbergen, Belgium) for 5 min at 37 °C prior to the initiation of the reaction with NADPH.4Na. After incubation, the mixture was terminated by 400 μL ice-cold acetonitrile. […] A volume of 5 µL of supernatant was analysed using UHPLC-MS/MS.
Enzyme kinetic studies were conducted for the six CYP450-related probes reactions. For each probe, the maximum rate of the Vmax and Km were obtained using GraphPad Prism v.8.0.2 software via Michaelis-Menten Kinetic model (La Jolla, CA, USA). The incubation times of 5, 10, 15, 30, 45 and 60 min were tested individually. A series of protein concentrations (0.05, 0.1, 0.2, 0.4, 0.6, 0.8 and 1 mg/mL) of CLM in the incubation mixture were conducted. Triplicate analyses were performed for each incubation system.

Molecules are shown by their SMILES.

As to `CC(NC(C)(C)C)C(=O)c1cccc(Cl)c1` (stereo not shown) [Bupropion], the Vmax (in general, the top rate of the reaction or transport when substrate is in excess) is 88.9 nmol/min/mg.
